Reference: publication PMC9606274, “A dataset comprised of binding interactions for 104,972 antibodies against a SARS-CoV-2 peptide” (Scientific Data, 2022)

B1: Ab-95 scFv, heavy-light orientation (scFv, V domains shown)
VH: EVQLVESGAEVKKPGASVKVSCKASGYTFTSYGISWVRQAPGQGLEWMGWISAYNGNTNYAQKLQGRVTMTTDTSTSTAYMELRSLRSDDTAVYYCARVGRGVIDHWGQGTLVTVSS
VL: SSELTQDPAVSVALGQTVRITCEGDSLRYYYANWYQQKPGQAPILVIYGKNNRPSGIADRFSGSNSGDTSSLIITGAQAEDEADYYCSSRDSSGFQVFFGAGTKLTVL
notes: also called Ab-95-HL; seed 95
B2: Ab-95 scFv, light-heavy orientation (scFv, V domains shown)
VH: B1 VH
VL: B1 VL
notes: also called Ab-95-LH
B3: Ab-14 scFv, heavy-light orientation (scFv, V domains shown)
VH: EVQLVETGGGLVQPGGSLRLSCAASGFTLNSYGISWVRQAPGKGPEWVSVIYSDGRRTFYGDSVKGRFTISRDTSTNTVYLQMNSLRVEDTAVYYCAKGRAAGTFDSWGQGTLVTVSS
VL: DVVMTQSPESLAVSLGERATISCKSSQSVLYESRNKNSVAWYQQKAGQPPKLLIYWASTRESGVPDRFSGSGSGTDFTLTISSLQAEDAAVYYCQQYHRLPLSFGGGTKVEIK
notes: also called Ab-14-HL; seed 14
B4: Ab-14 scFv, light-heavy orientation (scFv, V domains shown)
VH: B3 VH
VL: B3 VL
notes: also called Ab-14-LH
B5: Ab-91 scFv, heavy-light orientation (scFv, V domains shown)
VH: EVQLVESGGGLVQPGRSLRLSCAASGFTFDDYAMHWVRQAPGKGLEWVSGISWNSGSIGYADSVKGRFTISRDNAENSLYLQMNSLRAEDTALYYCAKVGRGGGYFDYWGQGTLVTVSS
VL: QAVLTQPSSLSASPGASVSLTCTLRSGINVGTYRIYWYQQKPGSPPQYLLRYKSDSDKQQGSGVPSRFSGSKDASANAGILLISGLQSEDEADYYCMIWHSSAWVFGGGTKLTVL
notes: also called Ab-91-HL
B6: Ab-91 scFv, light-heavy orientation (scFv, V domains shown)
VH: B5 VH
VL: B5 VL
notes: also called Ab-91-LH; seed 91

Target: T1, SARS-CoV-2 target peptide PDVDLGDISGINAS (HR2 region of the spike protein) (SARS-CoV-2)
T1 chain: PDVDLGDISGINAS
Assay: AlphaSeq (yeast mating with sequencing)
Details: partners not purified

Binder	Kd [nM]
B1	< 1
B2	< 1
B3	< 1
B4	< 1
B5	3.39
B6	< 1
